Source: PMC2965769 (PLoS Pathogens, 2010)

Test system: wt HPIV3
Settings: for HPIV3 viral titer, Day 1 / HPIV3 viral titer, Day 2 / HPIV3 viral titer, Day 3 / HPIV3 viral titer, Day 5 / HPIV3 viral titer, Day 7: HAE apical surface, 1uM peptide at time of infection only, mean +/- SD; for reduction of HPIV3 viral titer in HAE, two days post-infection: single initial dose 1000 nM peptide at infection, 90 min adsorption, vs untreated control wells, 3 replicate samples

Compound: CC[C@H](C)[C@H](NC(=O)[C@H](CO)NC(=O)[C@H](CC(=O)O)NC(=O)[C@H](CC(C)C)NC(=O)[C@H](CCCCN)NC(=O)[C@H](CCC(N)=O)NC(=O)[C@H](CC(N)=O)NC(=O)[C@H](CO)NC(=O)[C@H](CCCNC(=N)N)NC(=O)[C@H](CCCNC(=N)N)NC(=O)[C@@H](NC(=O)[C@H](Cc1c[nH]c2ccccc12)NC(=O)[C@H](CCC(=O)O)NC(=O)[C@H](CCCCN)NC(=O)[C@H](CO)NC(=O)[C@H](CCC(=O)O)NC(=O)[C@H](CCC(=O)O)NC(=O)[C@H](CC(C)C)NC(=O)[C@H](CC(=O)O)NC(=O)[C@H](CO)NC(=O)[C@H](CCCCN)NC(=O)[C@H](C)NC(=O)[C@H](CCCCN)NC(=O)[C@H](CC(N)=O)NC(=O)[C@H](CC(C)C)NC(=O)[C@@H](NC(=O)[C@@H](NC(=O)[C@H](CO)NC(=O)[C@@H](NC(=O)[C@H](CC(=O)O)NC(=O)[C@@H](NC(=O)[C@@H]1CCCN1C(=O)[C@H](CC(=O)O)NC(=O)[C@H](CC(C)C)NC(=O)[C@H](C)NC(=O)[C@@H](NC(C)=O)C(C)C)[C@@H](C)CC)[C@@H](C)CC)[C@@H](C)CC)C(C)C)[C@@H](C)CC)C(=O)NCC(=O)N[C@@H](CO)C(=O)NCC(=O)N[C@@H](CO)C(=O)NCC(=O)N[C@@H](CSCC(=O)NCCOCCOCCOCCOCCC(=O)O[C@H]1CC[C@@]2(C)C(=CC[C@H]3[C@@H]4CC[C@H]([C@H](C)CCCC(C)C)[C@@]4(C)CC[C@@H]32)C1)C(N)=O [V-PEG4-chol]
- HPIV3 viral titer, Day 1: 0.3+/-0.2 pfu/ ml 103
- HPIV3 viral titer, Day 2: 3.8+/-1.6 pfu/ ml 103
- HPIV3 viral titer, Day 3: 10 +/-1.9 pfu/ ml 103
- HPIV3 viral titer, Day 5: 3.0+/-0.6 pfu/ ml 103
- HPIV3 viral titer, Day 7: 11 +/-1.9 pfu/ ml 103
- reduction of HPIV3 viral titer in HAE, two days post-infection: the same as for untreated control wells

Compound: CC[C@H](C)[C@H](NC(=O)[C@H](CO)NC(=O)[C@H](CC(=O)O)NC(=O)[C@H](CC(C)C)NC(=O)[C@H](CCCCN)NC(=O)[C@H](CCC(N)=O)NC(=O)[C@H](CC(N)=O)NC(=O)[C@H](CO)NC(=O)[C@H](CCCNC(=N)N)NC(=O)[C@H](CCCNC(=N)N)NC(=O)[C@@H](NC(=O)[C@H](Cc1c[nH]c2ccccc12)NC(=O)[C@H](CCC(=O)O)NC(=O)[C@H](CCCCN)NC(=O)[C@H](CO)NC(=O)[C@H](CCC(=O)O)NC(=O)[C@H](CCC(=O)O)NC(=O)[C@H](CC(C)C)NC(=O)[C@H](CC(=O)O)NC(=O)[C@H](CO)NC(=O)[C@H](CCCCN)NC(=O)[C@H](C)NC(=O)[C@H](CCCCN)NC(=O)[C@H](CC(N)=O)NC(=O)[C@H](CC(C)C)NC(=O)[C@@H](NC(=O)[C@@H](NC(=O)[C@H](CO)NC(=O)[C@@H](NC(=O)[C@H](CC(=O)O)NC(=O)[C@@H](NC(=O)[C@@H]1CCCN1C(=O)[C@H](CC(=O)O)NC(=O)[C@H](CC(C)C)NC(=O)[C@H](C)NC(=O)[C@@H](NC(C)=O)C(C)C)[C@@H](C)CC)[C@@H](C)CC)[C@@H](C)CC)C(C)C)[C@@H](C)CC)C(=O)NCC(=O)N[C@@H](CO)C(=O)NCC(=O)N[C@@H](CO)C(=O)NCC(=O)N[C@@H](CSCC(=O)O[C@H]1CC[C@@]2(C)C(=CC[C@H]3[C@@H]4CC[C@H]([C@H](C)CCCC(C)C)[C@@]4(C)CC[C@@H]32)C1)C(N)=O [V-chol]
- HPIV3 viral titer, Day 1: 1.0+/-0.8 pfu/ ml 103
- HPIV3 viral titer, Day 2: 3.8+/-0.9 pfu/ ml 103
- HPIV3 viral titer, Day 3: 8.5+/-2.7 pfu/ ml 103
- HPIV3 viral titer, Day 5: 12 +/-3.0 pfu/ ml 103
- HPIV3 viral titer, Day 7: 2.7+/-0.8 pfu/ ml 103
- reduction of HPIV3 viral titer in HAE, two days post-infection: the same as for untreated control wells
